A mixed list of measured activities; the numbers were collected in NIAID ChemDB.

Common to all: tests in culture; agent: HIV-1

Neighbouring rows are from separate reports.

SMILES,method,strain,mutations,measure,cell line,value
Cc1cn([C@H]2C[C@H](N=[N+]=[N-])[C@@H](CO)O2)c(=O)[nH]c1=O,-,A018A,-,EC90,PBMC,0.19–0.34 µg/mL
CO[P@](=O)(c1cc(C)cc(/C=C/C#N)c1)c1c(C(N)=O)[nH]c2ccc(Cl)c(F)c12,-,IIIB,-,EC50,MOLT-4,0.0007 µM
CCc1cc(NCc2nc3c(Cl)ccc(Cl)c3o2)c(=O)[nH]c1C,syncytia,IIIB-TSAO-m3T(10)(RT-Y181C),RT-Y181C,EC50,CEM,0.07 µg/mL
CCc1cc(NCc2nc3c(Cl)ccc(Cl)c3o2)c(=O)[nH]c1C,p24,MN,-,EC95,MT-4,0.1 µM
CC(C)CN(C[C@@H](O)[C@H](Cc1ccccc1)NC(=O)[C@@H](NC(=O)CNCc1cccc(F)c1)C(C)(C)C)S(=O)(=O)c1cccc(N)c1,virus yield,IIIB,-,EC90,PBMC,0.012 µM
Cc1cccc(C)c1OCC(=O)N[C@@H](Cc1ccccc1)[C@@H](O)C[C@H](Cc1ccccc1)NC(=O)[C@H](C(C)C)N1CCCNC1=O,p24 / luminescence,ERS104pre,L63P,EC50,PBMC,0.032 µM
CC(C)Nc1cccnc1N1CCN(C(=O)c2cc3cc(NS(C)(=O)=O)ccc3[nH]2)CC1,cytopathic effect,A-0 (RT-L100I),RT-L100I,EC50,CEM,0.12 µg/mL
Cc1cc(C)c(-n2nnnc2SCC(=O)Nc2ccc([N+](=O)[O-])cc2C)c(C)c1,p24,-,-,EC95,MT-4,<10 µM
S=C(NCCc1cccs1)Nc1ccc(Br)cn1,p24,G704-2 Clinical isolate NRTI-resistant,RT-M41L D67N K70R L210W T215Y,EC50,PBMC,0.017 µM
Cc1cn([C@H]2C=C[C@@H](CO)O2)c(=O)[nH]c1=O,recombinant virus assay,Clinical isolate,A62V (mixture)/L74V/V75I (mixture)/K103N/Y115F/F116Y/Q151M,EC50,MT-2,7.2 µM
Cc1ccnc2c1NC(=O)c1cccnc1N2C1CC1,syncytia,-,RT-E138K,EC50,CEM,0.4 µM
CC(C)CN(C[C@@H](O)[C@H](Cc1ccccc1)NC(=O)O[C@H]1CCOC1)S(=O)(=O)c1ccc(N)cc1,p24 / luminescence,NL4-3,L10I M46L I54V V82A,EC50,MT-4,>1 µM
Cc1cccc(C)c1-n1nnnc1SCC(=O)Nc1ccccc1Cl,p24,-,-,EC95,MT-4,<10 µM
Cc1cn([C@H]2C[C@H](N=[N+]=[N-])[C@@H](CO)O2)c(=O)[nH]c1=O,MTT,A17,-,EC50,C8166,0.0161 µM
Nc1ccn([C@H]2CC[C@@H](CO)O2)c(=O)n1,p24,Recombinant,RT-V75I F77L F116Y Q151M,EC50,PBMC,0.22 µM
Cc1[nH]c(=O)c(F)cc1Cn1cnc(C(F)(F)C(F)F)c(Oc2cc(C(F)F)cc(C#N)c2C)c1=O,luminescence,-,-,EC50,CD4+ T-cell,>40.5 µM
CC(C)(C)NC(=O)[C@@H]1CN(Cc2cccnc2)CCN1C[C@@H](O)C[C@@H](Cc1ccccc1)C(=O)N[C@H]1c2ccccc2C[C@H]1O,RT activity,7324-1 NRTI resistant recombinant,RT-M41L D67N T69N K70R T215F K219E,EC50,PBMC,0.0057 µM
CC(C)CN(C[C@@H](O)[C@H](Cc1ccccc1)NC(=O)O[C@H]1CCOC1)S(=O)(=O)c1ccc(N)cc1,p24 / luminescence,ERS104pre,L63P,EC50,PBMC,0.031 µM
Cc1cc(C)c(-n2nnnc2SCC(=O)Nc2ccccc2Br)c(C)c1,p24,-,-,EC50,MT-4,<10 µM
Cc1cn([C@H]2C[C@H](N=[N+]=[N-])[C@@H](CO)O2)c(=O)[nH]c1=O,cytopathic effect / trypan blue,IIIB/LAI,-,EC50,MT-4,0.003 µM
CCN[C@H]1CO[C@@H]2OCC[C@H](OC(=O)N[C@@H](Cc3ccccc3)[C@H](O)CN(CC(C)C)S(=O)(=O)c3ccc4nc(NC5CC5)sc4c3)[C@@H]21,p24 / luminescence,NL4-3,L23I E34Q K43I M46I I50L G51A L63P A71V V82A T91A,EC50,MT-4,0.0009 µM
Nc1ncnc2c1ncn2CC(CF)OCP(=O)(O)O,syncytia,IIIB nevirapine-resistant (RT Y181C),RT-Y181C,EC50,CEM,10 µM
CC(C)Nc1cccnc1N1CCN(C(=O)c2cc3cc(NS(C)(=O)=O)ccc3[nH]2)CC1,p24,477 clinical isolates delavirdine-resistant,-,EC90,PBMC,6.7 µM
COc1ccc(S(=O)(=O)N(CC(C)C)C[C@@H](O)[C@H](Cc2ccccc2)NC(=O)O[C@H]2CCO[C@H]3OCC[C@H]32)cc1,p24 / luminescence,NL4-3,L10I I15V K20R L24I V32I M36I M46I I54V I62V L63P K70Q V82A L88M,EC50,MT-4,0.427 µM
Nc1nc(=O)n([C@@H]2CS[C@H](CO)O2)cc1F,recombinant virus assay,Clinical isolate,D67N/T69N/K70R/A98G/M184V/G190S/T215F/K219Q,EC50,MT-2,>13.3 µM
Cc1ccnc2c1NC(=O)c1cccnc1N2C1CC1,MTT,BCF06 (subtype O),-,EC50,MT-4,0.09 µg/mL
Cc1cc(Br)cc(S(=O)(=O)c2cccc(N)c2C#N)c1,β-galactosidase,-,RT-E138K,EC50,HeLa + HELA CD4+,0.017 µM
Cc1cc(S(N)(=O)=O)ccc1NC(=O)COc1ccc(Cl)cc1C(=O)c1cc(Cl)cc(C#N)c1,β-galactosidase,NNRTI-resistant (RT V106A),RT-V106A,EC50,MAGI,0.0034 µM
C/C=C/CSc1cc(NC(=S)c2ccsc2C)ccc1Cl,cytopathic effect / XTT,BaL,-,EC50,MAC,0.2 µM
CC[C@H]1C(=O)Nc2ccc(F)cc2N1C(=O)OC(C)C,cytopathic effect,IIIB,-,EC50,CEM,0.001 µg/mL
Cc1cc(C)c(-n2nnnc2SCC(=O)Nc2ccc(C)c([N+](=O)[O-])c2)c(C)c1,p24,-,-,EC95,MT-4,<10 µM
CCc1c(Sc2ccccn2)n(COCc2ccccc2)c(=O)[nH]c1=O,cytopathic effect / XTT,UC82-R (RT-Y181C),RT-Y181C,EC50,CEM + CEM-SS,4.1 µM
Cc1cc(C)c(-n2nnnc2SCC(=O)Nc2cccnc2Cl)c(C)c1,p24,-,-,EC95,MT-4,<10 µM
CC(C)=CCN1Cc2cc(Cl)cc3[nH]c(=S)n(c23)C[C@@H]1C,cytopathic effect / MTT,RF,-,EC50,CEM + CEM-SS,0.043 µM
COC(=O)[C@H](C)NP(=O)(OC[C@@H]1C=C[C@H](n2cc(C)c(=O)[nH]c2=O)O1)Oc1ccc(Br)cc1,p24,X165-9 NRTI resistant,RT-K20R D67N K103N T215Y,EC50,PBMC,0.002 µM
CCc1cc(CCN2C(=O)c3ccccc3C2=O)c(=O)[nH]c1C,p24,IIIB,-,EC50,H9,<40 µM
CCOP(=O)(COc1ccc(C[C@H](NC(=O)O[C@H]2CO[C@H]3OCC[C@H]32)[C@H](O)CN(CC(C)C)S(=O)(=O)c2ccc(OC)cc2)cc1)OCC,ATP,IIIB,8374-P62 GS-8374-resistant,EC50,MT-2,0.07 µM
Cc1cc(C)c(-n2nnnc2SCC(=O)Nc2ccc(Cl)nc2Cl)c(C)c1,p24,-,-,EC95,MT-4,<10 µM
Cc1cn([C@@H]2O[C@H](CO[Si](C)(C)C(C)(C)C)C3(OS(=O)(=O)C=C3N)[C@H]2O[Si](C)(C)C(C)(C)C)c(=O)n(C)c1=O,syncytia,IIIB-Nevirapine(0.1)(RT-Y181C),RT-Y181C,EC50,CEM,0.78 µg/mL
Cc1ccnc2c1NC(=O)c1cccnc1N2C1CC1,cytopathic effect / XTT,Calanolide A-resistant (RT T139I),RT-T139I,EC50,CEM + CEM-SS,0.01 µM
O=C1N(Cc2ccc(CO)cc2)[C@H](Cc2ccccc2)[C@H](O)[C@@H](O)[C@@H](Cc2ccccc2)N1Cc1ccc(CO)cc1,p24,PB clinical isolate,-,EC50,PBMC,0.04 µM
Cc1cn([C@H]2C[C@H](N=[N+]=[N-])[C@@H](CO)O2)c(=O)[nH]c1=O,MTT,39RW024 (subtype A),-,EC50,MT-4,0.001 µg/mL
CN(C)c1ccc(-n2nnnc2SCC(=O)Nc2ccccc2Cl)cc1,p24,-,-,EC50,MT-4,<10 µM
CN1C(=O)N(Cc2ccccc2)S(=O)(=O)c2cscc21,syncytia,NDK,-,EC50,MT-4,3.9 µM
COc1cc(C(F)(F)F)cc(S(=O)(=O)c2cccc(N)c2C#N)c1,β-galactosidase,-,RT-V106A Y181C,EC50,HeLa + HELA CD4+,0.42 µM
CN1N=C(N)c2cn([C@@H]3O[C@H](COP(=O)(O)O)[C@@H](O)[C@H]3O)c3ncnc1c23,p24,IIIB,-,EC50,-,0.02 µM
Cc1cn([C@H]2C[C@H](N=[N+]=[N-])[C@@H](CO)O2)c(=O)[nH]c1=O,p24,Recombinant,RT-V75I F77L F116Y Q151M,EC50,PBMC,0.2 µM
Cc1cn([C@H]2C[C@H](N=[N+]=[N-])[C@@H](CO)O2)c(=O)[nH]c1=O,cytopathic effect,Q-1 (RT T139K Y181C Y188D/Y),RT-T139K Y181C Y188D/Y,EC50,CEM,0.046 µM
Cc1cn([C@H]2C[C@H](N=[N+]=[N-])[C@@H](CO)O2)c(=O)[nH]c1=O,syncytia,IIIB,-,EC50,CEM,0.003 µM
O=C(CSc1nnnn1-c1cccc2ccccc12)Nc1ccccn1,p24,-,-,EC50,MT-4,<10 µM
Nc1ncnc2c1ncn2CCOCP(=O)(O)O,syncytia,IIIB-Pyridinone(0.1)(RT-V179N,RT-V179N,EC50,CEM,13 µM
Nc1ccn([C@@H]2CS[C@H](CO)O2)c(=O)n1,p24,56252-1 NRTI resistant recombinant,RT-T69K K70G V75I F77L F116Y Q151M M184V,EC50,PBMC,>10 µM
Nc1ccn([C@H]2CC[C@@H](CO)O2)c(=O)n1,syncytia,IIIB-BHAP)(0.1)(RT-L100I,RT-L100I,EC50,CEM,0.02 µM
CC(C)CN(C[C@@H](O)[C@H](Cc1ccccc1)NC(=O)O[C@H]1CCO[C@H]2OCC[C@H]21)S(=O)(=O)c1ccc2nc(NC3CC3)sc2c1,p24 / luminescence,NL4-3,-,EC50,MT-4,0.006 µM
Cc1c(O)cccc1C(=O)N[C@@H](CSc1ccccc1)[C@H](O)CN1C[C@H]2CCCC[C@H]2C[C@H]1C(=O)NC(C)(C)C,p24,HXB2,PR-M46I I47V I50V,EC50,PBMC,<0.035 µM
O=c1[nH]cnc2c1ncn2[C@H]1CC[C@@H](CO)O1,syncytia,IIIB TSAO-T(RT-E138K),RT-E138K,EC50,CEM,10 µM
Cc1ccc(S(=O)(=O)N(CC(C)C)C[C@@H](O)[C@H](Cc2ccccc2)NC(=O)O[C@H]2CO[C@H]3OCC[C@H]32)cc1,ATP,IIIB,-,EC50,MT-2,0.0036 µM
N#CCN1C(=O)N(Cc2ccccc2)S(=O)(=O)c2cscc21,syncytia,HE,-,EC50,MT-4,4.2 µM
Cc1cc(Cl)cc(S(=O)(=O)c2cccc(N)c2C#N)c1,β-galactosidase,-,RT-V108I,EC50,HeLa + HELA CD4+,0.011 µM
CCN1C(=O)N(Cc2cccc(Cl)c2)S(=O)(=O)c2cscc21,syncytia,NDK,-,EC50,MT-4,4.8 µM
CCC[C@@]1(CCc2ccccc2)CC(O)=C([C@H](CC)c2cccc(NS(=O)(=O)c3ccc(C(F)(F)F)cn3)c2)C(=O)O1,p24,Isolate N. Amer 2,-,EC50,PBMC,<0.17 µM
COC(=O)N[C@H](C(=O)N[C@@H](Cc1ccccc1)[C@@H](O)CN(Cc1ccc(-c2ccccn2)cc1)NC(=O)[C@@H](NC(=O)OC)C(C)(C)C)C(C)(C)C,p24 / ELISA,IIIB,K112M K113E V128I M200I H219P I401T R409K D437N L441P R41K,EC50,MT-2,0.0043 µM
CN[C@H]1CO[C@@H]2OCC[C@H](OC(=O)N[C@@H](Cc3cccc(OC)c3)[C@H](O)CN(CC(C)C)S(=O)(=O)c3ccc4nc(NC(C)C)sc4c3)[C@@H]21,p24 / luminescence,NL4-3,L10F M46I I54V V82A,EC50,MT-4,0.026 µM
Cc1ccnc2c1NC(=O)c1cccnc1N2C1CC1,syncytia,IIIB TIBO R82913 STR-1 (RT L100I Y181C),RT-L100I Y181C,EC50,CEM,1.5 µM
Cc1cc(O)cc(S(=O)(=O)c2cccc(N)c2C#N)c1,β-galactosidase,-,RT-K103N P225H,EC50,HeLa + HELA CD4+,5.5 µM
CC(C)=CCN1Cc2cccc3[nH]c(=S)n(c23)C[C@@H]1C,syncytia,IIIB TIBO R82913 STR-B22 (RT L100I Y188H),RT-L100I Y188H,EC50,CEM,≥5 µM
Cc1occc1C(=S)Nc1ccc(Cl)c(/C=N/OC(C)(C)C)c1,cytopathic effect / XTT,BaL,-,EC50,MAC,0.2 µM

For reference, 7 entries again:

SMILES	method	strain	mutations	measure	cell line	value
CC(C)CN(C[C@@H](O)[C@H](Cc1ccccc1)NC(=O)O[C@H]1CCOC1)S(=O)(=O)c1ccc(N)cc1	p24 / luminescence	ERS104pre	L63P	EC50	PBMC	0.031 µM
CCC[C@@]1(CCc2ccccc2)CC(O)=C([C@H](CC)c2cccc(NS(=O)(=O)c3ccc(C(F)(F)F)cn3)c2)C(=O)O1	p24	Isolate N. Amer 2	-	EC50	PBMC	<0.17 µM
CC(C)Nc1cccnc1N1CCN(C(=O)c2cc3cc(NS(C)(=O)=O)ccc3[nH]2)CC1	cytopathic effect	A-0 (RT-L100I)	RT-L100I	EC50	CEM	0.12 µg/mL
CCc1cc(NCc2nc3c(Cl)ccc(Cl)c3o2)c(=O)[nH]c1C	p24	MN	-	EC95	MT-4	0.1 µM
CCc1cc(NCc2nc3c(Cl)ccc(Cl)c3o2)c(=O)[nH]c1C	syncytia	IIIB-TSAO-m3T(10)(RT-Y181C)	RT-Y181C	EC50	CEM	0.07 µg/mL
Cc1cc(C)c(-n2nnnc2SCC(=O)Nc2cccnc2Cl)c(C)c1	p24	-	-	EC95	MT-4	<10 µM
O=c1[nH]cnc2c1ncn2[C@H]1CC[C@@H](CO)O1	syncytia	IIIB TSAO-T(RT-E138K)	RT-E138K	EC50	CEM	10 µM

ECn is the concentration giving n% inhibition of infection, replication or growth. Blank or dashed fields: not listed here. Two numbers with a dash give a range or band.